Data: article PMC6105683
The exact form of at least one protein or probe is not confirmed. Results from cells or extracts need not show a direct contact. For some of these results: At least one verdict was read from the data and is not stated in words by the source. For some of these results: Where a protein sequence is shown, tags need not be part of it.

The chains behind the UniProt entries cited, without tags or fusion partners.
UniProt Q8N884, whole entry: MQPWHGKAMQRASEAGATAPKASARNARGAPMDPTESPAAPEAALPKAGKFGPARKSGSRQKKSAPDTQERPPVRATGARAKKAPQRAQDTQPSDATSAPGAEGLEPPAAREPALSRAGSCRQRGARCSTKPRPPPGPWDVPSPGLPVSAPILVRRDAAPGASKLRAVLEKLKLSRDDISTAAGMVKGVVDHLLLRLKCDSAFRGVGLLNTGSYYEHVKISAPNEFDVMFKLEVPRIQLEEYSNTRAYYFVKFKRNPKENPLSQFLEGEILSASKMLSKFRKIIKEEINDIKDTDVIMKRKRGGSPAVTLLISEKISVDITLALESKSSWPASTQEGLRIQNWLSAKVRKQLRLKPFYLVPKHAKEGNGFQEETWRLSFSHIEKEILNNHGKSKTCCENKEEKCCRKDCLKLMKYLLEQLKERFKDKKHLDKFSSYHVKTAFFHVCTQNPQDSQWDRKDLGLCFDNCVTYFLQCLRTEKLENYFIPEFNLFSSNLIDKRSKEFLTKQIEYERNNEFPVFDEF
UniProt Q8C6L5, whole entry: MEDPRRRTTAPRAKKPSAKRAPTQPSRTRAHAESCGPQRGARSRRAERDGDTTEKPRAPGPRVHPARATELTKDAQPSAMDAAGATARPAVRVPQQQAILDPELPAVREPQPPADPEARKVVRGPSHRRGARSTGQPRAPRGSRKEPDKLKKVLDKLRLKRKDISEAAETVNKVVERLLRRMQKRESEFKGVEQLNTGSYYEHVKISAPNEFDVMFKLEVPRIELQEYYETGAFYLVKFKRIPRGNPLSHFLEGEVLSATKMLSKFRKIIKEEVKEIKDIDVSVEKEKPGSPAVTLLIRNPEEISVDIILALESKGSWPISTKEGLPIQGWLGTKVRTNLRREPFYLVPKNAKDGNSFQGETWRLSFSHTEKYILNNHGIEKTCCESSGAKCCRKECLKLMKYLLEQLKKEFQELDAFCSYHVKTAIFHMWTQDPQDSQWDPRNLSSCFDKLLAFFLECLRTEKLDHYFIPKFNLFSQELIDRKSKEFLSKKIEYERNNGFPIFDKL

Legend:
Assay in all cases: pull-down
[1] = molecular target: T1, Flag-ZCCHC3 C-terminal zinc finger constructs (UniProt Q9NUD5); conditions: protein in a lysate after overexpression; protein details: Flag; label: biotin
T1 sequence (looked up, limits assumed): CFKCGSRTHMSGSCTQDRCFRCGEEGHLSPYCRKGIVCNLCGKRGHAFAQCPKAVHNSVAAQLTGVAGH

HA-ZCCHC3 = molecular target: T2, HA-ZCCHC3 (UniProt Q9NUD5); conditions: protein in a lysate after overexpression; protein details: HA; label: biotin
T2 sequence (looked up, limits assumed): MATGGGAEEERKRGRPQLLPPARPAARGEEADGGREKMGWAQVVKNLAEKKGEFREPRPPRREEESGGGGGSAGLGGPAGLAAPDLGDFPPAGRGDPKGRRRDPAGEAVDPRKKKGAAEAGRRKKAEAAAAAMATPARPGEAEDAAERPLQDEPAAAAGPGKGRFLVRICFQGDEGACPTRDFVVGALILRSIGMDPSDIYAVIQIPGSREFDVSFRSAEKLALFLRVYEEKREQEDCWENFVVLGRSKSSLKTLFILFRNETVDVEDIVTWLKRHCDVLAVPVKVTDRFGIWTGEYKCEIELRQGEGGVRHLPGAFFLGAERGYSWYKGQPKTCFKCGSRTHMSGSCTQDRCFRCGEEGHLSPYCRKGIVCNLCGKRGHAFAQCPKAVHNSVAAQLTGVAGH

HA-cGAS = HA-cGAS (UniProt Q8N884); conditions: enhanced by ZCCHC3 overexpression; protein in a lysate after overexpression; protein details: HA; label: biotin
endogenous cGAS (mouse) = endogenous cGAS (mouse) (UniProt Q8C6L5); conditions: Zcchc3+/+ MLF or MEF lysate; protein in an extract; label: biotin

Measured: binding result

AGACGGTATATTTTTGCGTTATCACTGTCCCGGATTGGACACGGTCTTGTGGGATAGGCATGCCCAGAAGGCATATTGGGTTAACCCCTTTTTATTTGTGGCGGGTTTTTTGGAGGACTT (double strand) [HSV120]
binds: all assays above
